Pooled drug test results. Numbers come from NIAID ChemDB, via PubChem.

Shared fields: whole-cell or culture tests; species: HIV-1; endpoint: EC50

Neighbouring rows are from separate reports. ECn is the concentration giving n% inhibition of infection, replication or growth. An empty or dashed field is not shown.

SMILES,strain,changes,cells,method,conditions,value
Nc1ccn([C@H]2CC[C@@H](COC(=O)C(=O)N3CCCC3C(=O)N[C@H](Cc3ccccc3)C(=O)OCc3ccccc3)O2)c(=O)n1,IIIB,,MOLT-4 (HIV-1 IIIB) / M8166 + MOLT-4,syncytia,,>150 µM
Cc1cn([C@H]2C[C@H](N=[N+]=[N-])[C@@H](CO)O2)c(=O)[nH]c1=O,G704-2 Clinical isolate ZDV-resistant,RT-M41L D67N K70R L210W T215Y,PBMC,p24,,1.8 µM
Cc1cn([C@H]2C[C@H](N=[N+]=[N-])[C@@H](CO)O2)c(=O)[nH]c1=O,Q184V+333E (RT M41L/D67N/K70R/T215Y/Q184V/G333E),RT-M41L D67N K70R T215Y Q184V G333E,HT4LACZ-1 + HT4 LacZ-1,plaque count,,1.73 µM
C#C[C@]1(CO)O[C@@H](n2cnc3c(N)nc(F)nc32)C[C@@H]1OC(=O)CCCCCCCCC,NL4-3,,U373-CD4-CXCR4,luminescence,pseudotyped,0.0013 µM
CC12CCC3C(CCC4CCCCC43C)C1CC(F)C2=O,IIIB,,PBL(PHA-M) + PBL,p24 / ELISA,,40 µM
COc1ccc(CN(CCN2CCCCC2)CC2CCCN(C3CCCC3)C2)cc1O,NL4-3,,293T,luciferase / cell fusion,,7.9 µM
CCCCCCCCCCCCCC(=O)OC[C@@H](COP(=O)(O)OC[C@@H]1CC[C@H](n2cnc3c(N)ncnc32)O1)OC(=O)CCCCCCCCCCCCC,LAV-Bru,,CEM13 + CEM,ELISA,,<10 µM
O=Nc1c(-c2c(O)[nH]c3ccccc23)[nH]c2ccccc12,,,U1,p24,,<4 µM
O=c1[nH]cnc2c1ncn2[C@H]1CC[C@@H](CO)O1,RTMC(184) (RT D67N K70R M184V T215F K219Q),RT-D67N K70R M184V T215F K219Q,HT4 + HT4 LacZ-1,plaque count,,3.02 µM
Cn1c2ccccc2c2c3c(c4c5ccccc5n(CC(F)F)c4c21)CNC3=O,,,U1/HIV-1(TNFalpha) + U1,syncytia,,0.02 µM
CCCCCCCCCCCCCCCCCCCCCCC(=O)O[C@@H]1[C@@H](C)[C@@]2(O)[C@@H](C=C(COC(C)=O)C[C@]3(O)C(=O)C(C)=C[C@@H]23)[C@@H]2C(C)(C)[C@]12O,NL4-3,gp41 (36G) fusion inhibitor resistant (V38A N42T),C8166,p24 / ELISA,,6.915 µM
C#C[C@]1(CO)O[C@@H](n2cnc3c(N)nc(F)nc32)C[C@@H]1OC(=O)C1CCC(CCCCC)CC1,NL4-3,,U373-CD4-CXCR4,luminescence,pseudotyped,0.0018 µM
CCCN(C(=O)OCc1ccc([N+](=O)[O-])cc1)C1CCN(CC[C@H](CN(C)S(=O)(=O)c2ccccc2)c2ccccc2)CC1,YU-2 (M-tropic),,MAGI + MAGI-CCR5,,,<0.02 µM
C#C[C@]1(CO)O[C@@H](n2cnc3c(N)nc(F)nc32)C[C@@H]1OC(C)=O,NL4-3,,U373-CD4-CXCR4,luminescence,pseudotyped,0.1055 µM
O=c1[nH]cnc2c1ncn2[C@H]1CC[C@@H](CO)O1,RTMC (RT-Y181C),RT-D67N K70R Y181C T215Y K219Q,HT4 + HT4 LacZ-1,plaque count,,1.4 µM
N#C[C@]1(CO)O[C@@H](n2cnc3c(=O)[nH]cnc32)C[C@@H]1O,3TC-resistant (RT M184V),RT-M184V,MAGI,β-galactosidase,,6.06 µM
Cc1ccnc2c1NC(=O)c1cccnc1N2C1CC1,NNRTI-resistant (RT V106I Y181C),RT-V106I Y181C,MAGI,β-galactosidase,,>10 µM
Cc1cc(C#N)cc(C)c1Oc1nc(Nc2ccc(C#N)cc2)nc(N)c1Br,p8.9 B (N348I),,HEK293T,luciferase,,0.00275 µM
Nc1nc2c(ncn2[C@H]2CC[C@@H](CO)O2)c(=O)[nH]1,LAV-Bru,,CEM13 + CEM,ELISA,,<10 µM
O=C1O[C@H]2[C@@H]3OC(=O)c4cc(O)c(O)c(O)c4-c4c(cc(O)c(O)c4O)C(=O)OC[C@H]2O[C@@H](OC(=O)c2cc(O)c(O)c(O)c2)[C@@H]3OC(=O)c2cc(O)c(O)c3c2[C@@H]2C1=CC(=O)[C@](O)(O3)C2(O)O,NRTI resistant (RT D67N K70R T215F K219Q) ARP141,RT-D67N K70R T215F K219Q,MAGI,,,0.83 µg/mL
CC1CNCCN1S(=O)(=O)c1cccc2cnccc12,,,U1/HIV-1(PMA) + U1,syncytia,,1.6 µM
CC(C)=CCN1c2cc(Cl)cc3[nH]c(=S)n(c23)C[C@@H]1C,,RT-K70R Y181C,MT-4,,,<12.5 µM
C#C[C@]1(CO)O[C@@H](n2cnc3c(NC(=O)CCCCCCCCCCCCC)nc(F)nc32)C[C@@H]1OC(C)=O,NL4-3,,U373-CD4-CXCR4,luminescence,pseudotyped,0.0114 µM
C1CNCCNCCCN(CCCN2CCCNCCNCCCNCC2)CCNC1,IIIB,,CD4+HELA + HeLa,plaque count / antigen,,3.73 µM
Cc1cn([C@H]2C[C@H](N=[N+]=[N-])[C@@H](COC(=O)C(=O)N3CCCC3C(=O)N[C@H](Cc3ccccc3)C(=O)OCc3ccccc3)O2)c(=O)[nH]c1=O,IIIB,,MOLT-4 (HIV-1 IIIB) / M8166 + MOLT-4,syncytia,,>150 µM
O=C(O)c1cc(C(=O)O)cc(-c2c3nc(c(-c4cc(C(=O)O)cc(C(=O)O)c4)c4ccc([nH]4)c(-c4cc(C(=O)O)cc(C(=O)O)c4)c4nc(c(-c5cc(C(=O)O)cc(C(=O)O)c5)c5ccc2[nH]5)C=C4)C=C3)c1,BaL,,MAGI cell,β-galactosidase,,1.9 µM
CCCCCCCCCCCCCC(=O)OC[C@@H](COP(=O)(O)OC[C@@H]1CC[C@H](n2cc(C)c(=O)[nH]c2=O)O1)OC(=O)CCCCCCCCCCCCC,LAV-Bru,,CEM13 + CEM,ELISA,,~1 µM
Nc1ccn([C@@H]2CS[C@H](CO)O2)c(=O)n1,LAI,,Primary T lymphocytes,p24 / ELISA,,0.8 µM
c1cc(CN2CCCNCCNCCCNCC2)ccc1CN1CCCNCCNCCCNCC1,NL4-3,,HeLaP4,β-galactosidase,,0.00285 µM
Nc1nc2c(ncn2COCCO)c(=O)[nH]1,CXCR4-tropic HIV pseudovirus,V75I,PHA-activated CD4+ lymphoblasts,GFP,,>300 µM
Cn1c(CN(CCN2CCCCC2)CC2CCCN(C3CCCC3)C2)nc2ccccc21,LAI,,MAGI,β-galactosidase,,1.2 µM
Cc1cn([C@H]2CC[C@@H](CO)O2)c(=O)[nH]c1=O,LAV-Bru,,CEM13 + CEM,ELISA,,~10 µM
Cc1cc(=O)c2ccc(N=C=S)cc2o1,NL4-3,,CEM-GFP,p24 / ELISA,,0.157 µM
C#C[C@]1(CO)O[C@@H](n2cnc3c(N)nc(F)nc32)C[C@@H]1OC(=O)C(CCCCCC)CCCCCCCC,NL4-3,,U373-CD4-CXCR4,luminescence,pseudotyped,0.5546 µM
O=C1CCCN1CCCN1CC(=O)N2CC(N(CCOc3ccccc3)S(=O)(=O)c3cccc(F)c3)C[C@H]2C1=O,PLAI-JRFL PID2-6,,TZM-bl,luciferase,,>30 µM
Nc1ncnc2c1ncn2[C@H]1CC[C@@H](COC(=O)C(=O)N2CCCC2C(=O)N[C@H](Cc2ccccc2)C(=O)OCc2ccccc2)O1,IIIB,,MOLT-4 (HIV-1 IIIB) / M8166 + MOLT-4,syncytia,,>150 µM
C1CNCCNCCCN[C@H]([C@@H]2CNCCCNCCNCCCN2)CNC1,IIIB,,HuT-78 + HUT 78,antigen,,0.43 µM
O=C([O-])c1cc(C(=O)[O-])cc(-c2c3nc(c(-c4cc(C(=O)[O-])cc(C(=O)[O-])c4)c4ccc([n-]4)c(-c4cc(C(=O)[O-])cc(C(=O)[O-])c4)c4nc(c(-c5cc(C(=O)[O-])cc(C(=O)[O-])c5)c5ccc2[n-]5)C=C4)C=C3)c1,IIIB,,MAGI cell,β-galactosidase,,0.49 µM
Cc1cn([C@H]2C[C@H](N=[N+]=[N-])[C@@H](CO)O2)c(=O)[nH]c1=O,,4xAZT,Primary T lymphocytes,p24 / ELISA,,0.1 µM
C#C[C@]1(CO)O[C@@H](n2cnc3c(NC(=O)CCC)nc(F)nc32)C[C@@H]1OC(=O)CCC,NL4-3,,U373-CD4-CXCR4,luminescence,pseudotyped,0.102 µM
O=S(=O)(c1ccccc1)c1ccccc1,IIIB HEPT-resistant (RT P236L),RT-P236L,CEM + CEM-SS,cytopathic effect / XTT,,9.5 µM
O=C(OC[C@@H]1CC[C@H](n2ccc(=O)[nH]c2=O)O1)C(=O)N1CCCC1C(=O)N[C@H](Cc1ccccc1)C(=O)OCc1ccccc1,IIIB,,MOLT-4 (HIV-1 IIIB) / M8166 + MOLT-4,syncytia,,>150 µM
Cc1ccnc2c1NC(=O)c1cccnc1N2C1CC1,RTMN(184) (RT M41L M184V T215Y),RT-M41L M184V T215Y,HT4 + HT4 LacZ-1,plaque count,,0.06 µM
O=C([O-])c1cc(COc2ccc(-c3c4nc(c(-c5ccc(OCc6cc(C(=O)[O-])cc(C(=O)[O-])c6)cc5)c5ccc([nH]5)c(-c5ccc(OCc6cc(C(=O)[O-])cc(C(=O)[O-])c6)cc5)c5nc(c(-c6ccc(OCc7cc(C(=O)[O-])cc(C(=O)[O-])c7)cc6)c6ccc3[nH]6)C=C5)C=C4)cc2)cc(C(=O)[O-])c1,IIIB,,MAGI cell,β-galactosidase,,0.21 µM
C#C[C@]1(CO)O[C@@H](n2cnc3c(N)nc(F)nc32)C[C@@H]1OC(=O)C(CCCC)CCCCCC,NL4-3,,U373-CD4-CXCR4,luminescence,pseudotyped,0.1454 µM
CCc1c(Sc2ccccn2)n(COCc2ccccc2)c(=O)[nH]c1=O,BaL,,MAC,cytopathic effect / XTT,,0.007 µM
O=c1[nH]cnc2c1ncn2C1CC[C@@H](CO)O1,,L74V,Primary T lymphocytes,p24 / ELISA,,13.2 µM
Cc1ccnc2c1NC(=O)c1cccnc1N2C1CC1,IIIB,RT-V108I,CEM + CEM-SS,cytopathic effect / XTT,,0.33 µM
NC(=O)C(c1ccccc1)(c1ccccc1)[C@H]1CCCN(CCc2ccc3c(c2)CCO3)C1,NL4-3,,CEM4,cytopathic effect / XTT,,0.95 µM
Cc1cn([C@H]2C[C@H](N=[N+]=[N-])[C@@H](COC(=O)C(=O)N[C@@H](CO)C(=O)N[C@@H](Cc3ccccc3)C(=O)N[C@@H](CC(C)C)C(=O)N[C@H](C(=O)O)[C@@H](C)O)O2)c(=O)[nH]c1=O,IIIB,,MOLT-4 (HIV-1 IIIB) / M8166 + MOLT-4,syncytia,,>100 µM
Cc1cn([C@H]2C[C@H](N=[N+]=[N-])[C@@H](CO)O2)c(=O)[nH]c1=O,IIIB,,AA5,cytopathic effect / XTT,,0.01 µM

For reference, 5 entries again:

SMILES	strain	changes	cells	method	conditions	value
Cc1cn([C@H]2C[C@H](N=[N+]=[N-])[C@@H](CO)O2)c(=O)[nH]c1=O	IIIB		AA5	cytopathic effect / XTT		0.01 µM
CC(C)=CCN1c2cc(Cl)cc3[nH]c(=S)n(c23)C[C@@H]1C		RT-K70R Y181C	MT-4			<12.5 µM
Cc1ccnc2c1NC(=O)c1cccnc1N2C1CC1	NNRTI-resistant (RT V106I Y181C)	RT-V106I Y181C	MAGI	β-galactosidase		>10 µM
O=c1[nH]cnc2c1ncn2C1CC[C@@H](CO)O1		L74V	Primary T lymphocytes	p24 / ELISA		13.2 µM
COc1ccc(CN(CCN2CCCCC2)CC2CCCN(C3CCCC3)C2)cc1O	NL4-3		293T	luciferase / cell fusion		7.9 µM